According to patent US8895604B2, “Solid forms of (1r,4r)-6′-fluoro-N,N-dimethy1-4-phenyl-4′,9′-dihydro-3′ H-spiro-[cyclohexane-1,1′-pyrano-[3,4,b]indol]-4-amine hydrochloride” (dated 2014):

What was measured:
[1] = Mechanical stress from grinding with an agate mortar (PXRD); conditions: grinded in an agate mortar for 10 min
[2] = Solubility in water (saturated solutions, HPLC); conditions: bidest H2O, saturated solution, 24 h equilibration time, RT
[3] = Suspension equilibration experiments; conditions: Ex. 3-1: H2O, 200 mg/2 mL, 7 days, RT, dried under vacuum
[4] = Hygroscopicity testing by storage at RT and 85% r.h.; conditions: 24 h
[5] = Dynamic vapour sorption (DVS)
[6] = Storage at high relative humidity with FT-Raman / TG-FTIR; conditions: about 3 weeks at 97% r.h. at RT
[7] = Drying of solids from acid-base reaction experiments; conditions: solid from water-containing experiments, dried

| Substance | conversion of crystalline form upon grinding [1] | solubility [2] | outcome (crystall. form) [3] | mass change Δm on storage [4] | hygroscopicity class ([4]; classified according to European Pharmacopoeia) | mass change Δm in DVS ([5]; two cycles, 50→0→95→50% r.h.) | water content after storage [6] | water content reached by water uptake in DVS ([5]; 50→0→95→50% r.h. (2.5%/h), strong stepwise uptake) | conversion of crystalline form by DVS measurement ([5]; checked before and after repeated DVS by FT-Raman) | relative humidity at which loss of water was completed in DVS ([5]; on lowering the humidity, hysteresis) | conversion of crystalline form upon drying [7] |
| --- | --- | --- | --- | --- | --- | --- | --- | --- | --- | --- | --- |
| (1r,4r)-6′-fluoro-N,N-dimethyl-4-phenyl-4′,9′-dihydro-3′H-spiro[cyclohexane-1,1′-pyrano[3,4,b]indol]-4-amine hydrochloride | does not convert to another form | 1.21 µg/mL | did not convert to another form | 0% | not hygroscopic (not hygroscopic (nh): increase of the mass is less than 0.2%) | < 0.2% | – | – | – | – | – |
| (1r,4r)-6′-fluoro-N,N-dimethyl-4-phenyl-4′,9′-dihydro-3′H-spiro[cyclohexane-1,1′-pyrano[3,4,b]indol]-4-amine hydrochloride [crystalline form B] | does not convert to another form | – | – | – | – | – | about 19% | approx. 15.4% | No conversion | about 50 % r.h. | – |
| (1r,4r)-6′-fluoro-N,N-dimethyl-4-phenyl-4′,9′-dihydro-3′H-spiro[cyclohexane-1,1′-pyrano[3,4,b]indol]-4-amine hydrochloride [crystalline form C] | – | – | – | – | – | – | – | – | – | – | converts to crystalline form A upon drying |
